The values that follow come from patent publication US9206412B2, “Thioxothiazolidine inhibitors” (Colorado State University Research Foundation, priority 2012, dated 2015).

Structures are written as SMILES. Where “and” joins values, the source holds several entries; their conditions need not be identical. Equal entries are not always repeated.

The first data set concerns dengue type 2 virus subgenomic replicon (BHK-pD2hRucPac). The data set can be described thus: Antiviral (replicon) assay, Renilla luciferase. It counts as cell-based. To be noted: CC50/EC50. In general terms: In antiviral work, replicon cells carry a viral genome segment that copies itself.
Consider `O=C(O)CCN1C(=O)/C(=C/c2cccc(Cl)c2Cl)SC1=S` [BG-324], for which the “Replicon Therapeutic Index (TI)” value was determined as 1.4.

Consider `CC(C)(C)c1ccc(/C=C2/SC(=S)N(CCC(=O)O)C2=O)cc1` [BG-323, (E)-3-(5-(4-tert-butylbenzylidene)-4-oxo-2-thioxo-1,3-thiazolidin-3-yl)propanoic acid], for which the “Replicon Therapeutic Index (TI)” value was 12 and 6.

`O=C(O)CCN1C(=O)/C(=C/c2ccc(Cl)cc2Cl)SC1=S` [BG-330]: the “Replicon Therapeutic Index (TI)” value is recorded as 1.4.

The data set is the same for the next values; noted with them: CC50/EC50; listed as BG323.
Turning to `CC(C)(C)c1ccc(/C=C2/SC(=S)N(CCC(=O)O)C2=O)cc1` [BG-323, (E)-3-(5-(4-tert-butylbenzylidene)-4-oxo-2-thioxo-1,3-thiazolidin-3-yl)propanoic acid], the “Replicon Therapeutic Index (TI)” value stood at 6.0.

The data set is the same for the next values; noted with them: Table 2-1.
With `O=C(CN1C(=O)/C(=C/c2ccccc2Cl)SC1=S)Nc1ccccc1C(=O)O` [BG100], the “Replicon Assay_TI” value is listed as 1.34.

As to `O=C(CCN1C(=O)C(=Cc2ccc(Cl)cc2)SC1=S)Nc1ccc(C(=O)O)cc1` [BG122], the “Replicon Assay_TI” value was 1.41.

As for `CC(C)(C)c1ccc(/C=C2\SC(=S)N(CCC(=O)O)C2=O)cc1` [BG184], the “Replicon Assay_TI” value worked out at 1.3.

On to `O=C(CN1C(=O)/C(=C/c2ccccc2F)SC1=S)Nc1ccccc1C(=O)O` [BG132], for which the “Replicon Assay_TI” value is on record as 0.82.

In the case of `O=C1NC(=S)SC1=Cc1ccccc1OS(=O)(=O)c1ccc([N+](=O)[O-])cc1` [BG127], the “Replicon Assay_TI” value turned out to be 0.7.

On to `CC(C)(C)c1cc(C=C2SC(=S)NC2=O)cc(C(C)(C)C)c1O` [BG179], for which the “Replicon Assay_TI” value came to 1.35.

Turning to `O=C1NC(=O)C(=Cc2ccc(Br)cc2)S1` [BG143], the “Replicon Assay_TI” value is given as 1.22.

As for `COc1c(I)cc(I)cc1/C=C1\SC(=S)N(CC(=O)O)C1=O` [BG308], the “Replicon Assay_TI” value is 2.8.

In the case of `O=C(O)CCN1C(=O)C(=Cc2ccc(-c3ccccc3[N+](=O)[O-])o2)SC1=S` [BG139], the “Replicon Assay_TI” value is recorded as 1.11.

Take `CC(C)(C)c1ccc(C=C2SC(=S)N(CCC(=O)NS(C)(=O)=O)C2=O)cc1` [BG297]: the “Replicon Assay_TI” value is on record as 1.1.

For `O=C(O)CCN1C(=O)/C(=C/c2ccc(-c3ccc(Cl)cc3Cl)o2)SC1=S` [BG177], the “Replicon Assay_TI” value was 1 and 1.2.

In the case of `O=C(O)C(Cc1ccccc1)N1C(=O)C(=CC=Cc2ccccc2)SC1=S` (stereo not drawn) [BG138], the “Replicon Assay_TI” value is reported as 1.03.

Turning to `O=C(CN1C(=O)/C(=C/c2ccccc2F)SC1=S)Nc1cccc(C(=O)O)c1` [BG131], the “Replicon Assay_TI” value is 1.56.

With `O=C(CN1C(=O)C(=Cc2ccccc2Cl)SC1=S)Nc1ccc(C(=O)O)cc1` [BG119], the “Replicon Assay_TI” value is reported as 1.36.

Regarding `CC(C)C(C(=O)O)N1C(=O)/C(=C/c2ccccc2Cl)SC1=S` (stereo not drawn) [BG134], the “Replicon Assay_TI” value was found to be 1.1.

Regarding `Cc1cccc(/C=C2\SC(=S)N(CN3CCCCC3)C2=O)c1` [BG136], the “Replicon Assay_TI” value amounted to 1.21.

`O=C(O)CCN1C(=O)/C(=C/c2ccc(-c3cccc(Cl)c3)o2)SC1=S` [BG188]: the “Replicon Assay_TI” value was determined as 1.

Turning to `Cc1cccc(N2C(=O)/C(=C/c3ccc(C(=O)O)cc3)SC2=S)c1C` [BG128], the “Replicon Assay_TI” value came to 1.02.

On to `O=C(O)C(Cc1ccccc1)N1C(=O)C(=Cc2ccccc2Cl)SC1=S` (racemic) [BG135], for which the “Replicon Assay_TI” value amounted to 1.12.

In the case of `COc1ccccc1C=C1SC(=S)N(C(Cc2ccccc2)C(=O)O)C1=O` (racemic) [BG101], the “Replicon Assay_TI” value stood at 1.1.

For `O=C(O)CCN1C(=O)/C(=C/c2cccc(Cl)c2Cl)SC1=S` [BG-324], the “Replicon Assay_TI” value amounted to 1.43.

For the molecule `COc1ccc(N2C(=O)/C(=C/c3cc([N+](=O)[O-])cc(OC)c3O)SC2=S)cc1` [BG140], the “Replicon Assay_TI” value is reported as 1.74.

On to `O=C(CCN1C(=O)C(=Cc2ccc(Cl)cc2)SC1=S)Nc1cccc(C(=O)O)c1` [BG121], for which the “Replicon Assay_TI” value turned out to be 1.2.

For `CC(C)(C)c1ccc(/C=C2/SC(=S)N(CCC(=O)O)C2=O)cc1` [BG-323, (E)-3-(5-(4-tert-butylbenzylidene)-4-oxo-2-thioxo-1,3-thiazolidin-3-yl)propanoic acid], the “Replicon Assay_TI” value stood at 6.0.

In the case of `CCc1ccc(C=C2SC(=S)N(CCC(=O)Nc3ccccc3C(=O)O)C2=O)cc1` [BG274], the “Replicon Assay_TI” value is 1.

For the molecule `O=C(CN1C(=O)S/C(=C\c2ccccc2F)C1=O)Nc1ccccc1C(=O)O` [BG142], the “Replicon Assay_TI” value worked out at 1.43.

`CN1C(=O)S/C(=C\c2ccc(-c3ccc(C(=O)O)c(Cl)c3)o2)C1=O` [BG175]: the “Replicon Assay_TI” value came to 1.39.

For the molecule `COc1cc(C=C2SC(=S)NC2=O)ccc1OS(=O)(=O)c1ccccc1[N+](=O)[O-]` [BG141], the “Replicon Assay_TI” value came out at 1.14.

In the case of `CC(C)(C)c1ccc(/C=C2\SC(=S)N(CCC(=O)O)C2=O)cc1` [BG295], the “Replicon Assay_TI” value was 3.8.

On to `Cc1cc(C)cc(-n2c(C)cc(/C=C3\SC(=O)NC3=O)c2C)c1` [BG172], for which the “Replicon Assay_TI” value is 1.28.

As to `CC(C)(C)c1ccc(CC2SC(=S)N(CCC(=O)O)C2=O)cc1` (racemic) [BG296], the “Replicon Assay_TI” value is 0.6281.

On to `CC(C(=O)O)N1C(=O)C(=Cc2ccc(Cl)cc2Cl)SC1=S` (stereo not drawn) [BG133], for which the “Replicon Assay_TI” value came out at 0.87.

As for `C=CCOc1ccc(Cl)cc1/C=C1\SC(=S)NC1=O` [BG114], the “Replicon Assay_TI” value is reported as 1.16.

Regarding `COc1ccc2nc(N3CCCCC3)c(C=C3SC(=S)NC3=O)cc2c1` [BG168], the “Replicon Assay_TI” value is recorded as 1.17.

In the case of `O=C(CN1C(=O)C(=Cc2ccccc2Cl)SC1=S)Nc1cccc(C(=O)O)c1` [BG123], the “Replicon Assay_TI” value came to 1.43.

As for `Cc1ccc(N2C(=O)/C(=C/c3ccccc3C(=O)O)SC2=S)c(C)c1` [BG130], the “Replicon Assay_TI” value amounted to 0.95.

Consider `O=C(O)c1ccccc1/C=C1\SC(=S)N(c2cccc(C(F)(F)F)c2)C1=O` [BG129], for which the “Replicon Assay_TI” value came out at 0.75.

For `O=C(CCN1C(=O)/C(=C/c2ccccc2Cl)SC1=S)Nc1ccccc1C(=O)O` [BG289], the “Replicon Assay_TI” value amounted to 0.9.

For the molecule `CC(C)c1ccc(/C=C2\SC(=S)N(CC(=O)O)C2=O)cc1` [BG182], the “Replicon Assay_TI” value stood at 1.26.

`COc1cc(/C=C2\SC(=O)N(Cc3ccc(F)cc3)C2=O)c(Br)cc1OCC(=O)O` [BG163]: the “Replicon Assay_TI” value worked out at 1.54.

Take `O=C(CCCN1C(=O)/C(=C/c2ccc(F)cc2)SC1=S)Nc1cccc(C(=O)O)c1` [BG124]: the “Replicon Assay_TI” value worked out at 0.89.

Turning to `CCOc1ccc(N2C(=O)C(=Cc3ccccc3C(=O)O)SC2=S)cc1` [BG126], the “Replicon Assay_TI” value is recorded as 1.02.

Turning to `CC(=C1SC(=S)NC1=O)c1ccc(C)cc1` [BG137], the “Replicon Assay_TI” value was found to be 1.21.

As to `O=C1NC(=S)SC1=Cc1cccc(Cl)c1Cl` [BG333], the “Replicon Assay_TI” value stood at 1.25.

As for `O=C(O)CCN1C(=O)/C(=C/c2ccc(Cl)cc2Cl)SC1=S` [BG-330], the “Replicon Assay_TI” value came to 1.25.

`O=C(CCN1C(=O)/C(=C/c2cccc(Br)c2)SC1=S)Nc1ccccc1C(=O)O` [BG291]: the “Replicon Assay_TI” value is 0.9.

Turning to `CCOc1cc(/C=C2\SC(=S)NC2=O)ccc1OS(=O)(=O)c1ccccc1[N+](=O)[O-]` [BG169], the “Replicon Assay_TI” value came out at 1.15.

`CC(C)N1C(=O)SC(=Cc2ccccc2OCc2ccc(C(=O)O)cc2)C1=O` [BG166]: the “Replicon Assay_TI” value worked out at 1.2.

Regarding `CCN(CC)c1ccc(N2C(=O)/C(=C/c3ccc(C(=O)O)cc3)SC2=S)cc1` [BG125], the “Replicon Assay_TI” value worked out at 0.6.

`O=C(CCN1C(=O)C(=Cc2ccc(Cl)cc2)SC1=S)Nc1ccccc1C(=O)O` [BG120]: the “Replicon Assay_TI” value was 1.49.
